Experimental data reported in patent US20180016619A1, “Rapid Detection of Microbial Resistance to Lactam Antibiotics by LC-MS/MS” (DH Technologies Development Pte. Ltd., priority 2015, published 2018).

Test system: resistant strain of E. coli bacteria
Experiment: LC-MS/MS detection of antibiotic hydrolysis after incubation with a resistant E. coli strain
Type: cell-based
Conditions: LC-MS/MS MRM; for hydrolysis of parent antibiotic drug (chromatogram): Clinical E. coli isolates, resistant strain, incubated with a mixture of ampicillin, piperacillin and cefotaxime

CO/N=C(\C(=O)N[C@@H]1C(=O)N2C(C(=O)O)=C(COC(C)=O)CS[C@H]12)c1csc(N)n1 [cefotaxime]
presence of parent drug in chromatogram (resistant strain of E. coli expressing an extended spectrum beta-lactamase): disappearance

CC1(C)S[C@@H]2[C@H](NC(=O)[C@H](N)c3ccccc3)C(=O)N2[C@H]1C(=O)O [ampicillin]
hydrolysis of parent antibiotic drug (chromatogram): hydrolyses both antibiotic drugs

CCN1CCN(C(=O)N[C@@H](C(=O)N[C@@H]2C(=O)N3[C@@H]2SC(C)(C)[C@@H]3C(=O)O)c2ccccc2)C(=O)C1=O [piperacillin]
hydrolysis of parent antibiotic drug (chromatogram): hydrolyses both antibiotic drugs
